According to the supplement of paper PMC9931576:
Human monoclonal antibodies against the spike receptor-binding domain (heavy:light variable regions). IC50 against pseudoviruses bearing the spike of naturally observed variants; lower = stronger; >10 µg/ml means not reached at the top dose. No active / inactive call. The stated detection limit is 0.0005 µg/ml; values near or below 0.001 µg/ml lie at the floor of the assay.

What was measured:
Experiment in all cases: pseudovirus neutralization IC50; higher = weaker neutralization
[1] = biological target: SARS-CoV-2 Omicron BA.1 spike pseudovirus
Experimental: (§1)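 Single-round VSV luciferase pseudovirus mixed with antibody dilutions for 1 h and put on Huh-7 cells for about a day; IC50 from the dose curve.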

[2] = biological target: SARS-CoV-2 Omicron BA.2 spike pseudovirus
Experimental: as §1

[3] = biological target: SARS-CoV-2 Omicron BA.2.75 spike pseudovirus
Experimental: as §1

[4] = biological target: SARS-CoV-2 Omicron BA.2.75.2 spike pseudovirus
Experimental: as §1

[5] = biological target: SARS-CoV-2 Omicron BA.5 spike pseudovirus
Experimental: as §1

[6] = biological target: SARS-CoV-2 Omicron BM.1.1.1 spike pseudovirus
Experimental: as §1

[7] = biological target: SARS-CoV-2 Omicron BQ.1.1 spike pseudovirus
Experimental: as §1

[8] = biological target: SARS-CoV-2 Omicron BR.2 spike pseudovirus
Experimental: as §1

[9] = biological target: SARS-CoV-2 Omicron CA.1 spike pseudovirus
Experimental: as §1

[10] = biological target: SARS-CoV-2 Omicron XBB spike pseudovirus
Experimental: as §1

[11] = biological target: SARS-CoV-2 early D614G spike pseudovirus
Experimental: as §1

B1: BD56-879 (protein)
chain 1: EVQLVQSGAEVKKPGESLKISCKGSGYRFTNYWIGWVRQMPGKGLEWMNIFHPGDSDTRYSPSFQGQVTFSADKSISTAYLQWSSLKASDTAMYYCARLNNYDILTGVSPYFDYWGQGTLVTVSS
chain 2: QSALTQPASVSGSPGQSITISCTGTSSDVVAYNYVSWYQHHPGKAPKLMIYDVSDRPSGVSNRFSGSKSGNTASLTISGLQAEDEADYYCSSYTSSSTWVFGGGTKLTVL
- pseudovirus neutralization IC50 [1]: 0.169 µg/mL
- pseudovirus neutralization IC50 [2]: 0.439 µg/mL
- pseudovirus neutralization IC50 [3]: 0.843 µg/mL
- pseudovirus neutralization IC50 [4]: > 10 µg/mL
- pseudovirus neutralization IC50 [5]: > 10 µg/mL
- pseudovirus neutralization IC50 [6]: > 10 µg/mL
- pseudovirus neutralization IC50 [7]: > 10 µg/mL
- pseudovirus neutralization IC50 [8]: > 10 µg/mL
- pseudovirus neutralization IC50 [9]: > 10 µg/mL
- pseudovirus neutralization IC50 [10]: > 10 µg/mL
- pseudovirus neutralization IC50 [11]: > 10 µg/mL

B2: BD56-877 (protein)
chain 1: QVQLQESGPGLVKPSETLSLTCTVSGGSVSSSSYYWSWIRQPPGKGLEWIGYFYYSGSTNYNPSLNSRVTISVDTSKNQVSLKLSSVTAADTAVYYCARGNILMVRGVIPAFDIWGQGTMVTVSS
chain 2: QSVLTQPPSVSGAPGQRVTISCTGSSSNIGAGYDVHWYQQLPGTAPKLLIYGNSNRPSGVPDRFSGSKSGTSASLAITGLQAEDEADYYCQSYDSSLSGLFGGGTKLTVL
- pseudovirus neutralization IC50 [1]: 0.0159 µg/mL
- pseudovirus neutralization IC50 [2]: > 10 µg/mL
- pseudovirus neutralization IC50 [3]: > 10 µg/mL
- pseudovirus neutralization IC50 [4]: > 10 µg/mL
- pseudovirus neutralization IC50 [5]: > 10 µg/mL
- pseudovirus neutralization IC50 [6]: > 10 µg/mL
- pseudovirus neutralization IC50 [7]: > 10 µg/mL
- pseudovirus neutralization IC50 [8]: > 10 µg/mL
- pseudovirus neutralization IC50 [9]: > 10 µg/mL
- pseudovirus neutralization IC50 [10]: > 10 µg/mL
- pseudovirus neutralization IC50 [11]: > 10 µg/mL

B3: BD56-890 (protein)
chain 1: EVQVVESGGGLVQPGRSLRLSCIASGFSFGDYAMSWVRQAPGKGLEWVSFIRSKAYGGTTEYAASVKGRFTISRDDSKSIAYLQMNSLTTEDTAVYYCASSEGGLFDYWGQGILVTVSS
chain 2: DIQMTQSPSSLSASVGDRVTITCQATQDINNYLNWYQQKPGKAPKLLIYDASNLDTGVPSRFSGSGSGTDFTFTISSLQPEDIATYYCQQYDNLPWTFGQGTKVEIK
- pseudovirus neutralization IC50 [1]: 0.012 µg/mL
- pseudovirus neutralization IC50 [2]: 0.142 µg/mL
- pseudovirus neutralization IC50 [3]: > 10 µg/mL
- pseudovirus neutralization IC50 [4]: > 10 µg/mL
- pseudovirus neutralization IC50 [5]: > 10 µg/mL
- pseudovirus neutralization IC50 [6]: > 10 µg/mL
- pseudovirus neutralization IC50 [7]: > 10 µg/mL
- pseudovirus neutralization IC50 [8]: > 10 µg/mL
- pseudovirus neutralization IC50 [9]: > 10 µg/mL
- pseudovirus neutralization IC50 [10]: > 10 µg/mL
- pseudovirus neutralization IC50 [11]: > 10 µg/mL

B4: BD55-5689 (protein)
chain 1: QVPLQESGPGLVKPSETLSLTCSVSGPSITSYYWSWIRQPPGKGLEWIGFIYFSGSTNYNPSLKSRVTISVDTSKNQFSLKLSSVTAADTAVYYCAQIWVAGKAGSWFDPWGQGTLVTVSS
chain 2: QSVLTQPPSASGTPGQRVTISCSGSSSNIGSNTVNWYQQLPGTAPKLLIYRNNQRPSGVPDRFSGSKSGTSASLAISGLQSEDEADYYCATWDDSLNGPVFGGGTKLTVL
- pseudovirus neutralization IC50 [7]: > 10 µg/mL
- pseudovirus neutralization IC50 [10]: > 10 µg/mL
- pseudovirus neutralization IC50 [11]: 0.00182 µg/mL

B5: BD56-886 (protein)
chain 1: QVQLVESGGGVVQPGRSLRLSCAVSGFTFSTHGMHWVRQAPGKGLEWVAFIWYDGSEKYYADSVKGRFTISRDNPKNTLYLHMNGLRVEDTAVYYCAKDLIGYCSAGYCYIFDFWGQGALVTVSS
chain 2: NFMLTQPHSVSESPGKTVTISCTRSSGGIASNFVQWYQQRPGSPPTTVIYEDDQRPSGVPDRFSGSIDRSSNSASLTISGLKTEDEAEYYCQSYENNNQGVIFGGGTKLTIL
- pseudovirus neutralization IC50 [1]: 0.0726 µg/mL
- pseudovirus neutralization IC50 [2]: > 10 µg/mL
- pseudovirus neutralization IC50 [3]: 0.432 µg/mL
- pseudovirus neutralization IC50 [4]: 2.19 µg/mL
- pseudovirus neutralization IC50 [5]: 2.2 µg/mL
- pseudovirus neutralization IC50 [6]: 3 µg/mL
- pseudovirus neutralization IC50 [7]: > 10 µg/mL
- pseudovirus neutralization IC50 [8]: 3.09 µg/mL
- pseudovirus neutralization IC50 [9]: 2.08 µg/mL
- pseudovirus neutralization IC50 [10]: > 10 µg/mL
- pseudovirus neutralization IC50 [11]: > 10 µg/mL
